Patent US20230174488A1 (priority 2020, published 2023)
pIC50: −log10 of the molar value. Read-outs that look alike come from different tables or passages of the source.

Sequences of proteins named here, by UniProt entry; tags and fusion partners are left off.
UniProt P05177, whole entry: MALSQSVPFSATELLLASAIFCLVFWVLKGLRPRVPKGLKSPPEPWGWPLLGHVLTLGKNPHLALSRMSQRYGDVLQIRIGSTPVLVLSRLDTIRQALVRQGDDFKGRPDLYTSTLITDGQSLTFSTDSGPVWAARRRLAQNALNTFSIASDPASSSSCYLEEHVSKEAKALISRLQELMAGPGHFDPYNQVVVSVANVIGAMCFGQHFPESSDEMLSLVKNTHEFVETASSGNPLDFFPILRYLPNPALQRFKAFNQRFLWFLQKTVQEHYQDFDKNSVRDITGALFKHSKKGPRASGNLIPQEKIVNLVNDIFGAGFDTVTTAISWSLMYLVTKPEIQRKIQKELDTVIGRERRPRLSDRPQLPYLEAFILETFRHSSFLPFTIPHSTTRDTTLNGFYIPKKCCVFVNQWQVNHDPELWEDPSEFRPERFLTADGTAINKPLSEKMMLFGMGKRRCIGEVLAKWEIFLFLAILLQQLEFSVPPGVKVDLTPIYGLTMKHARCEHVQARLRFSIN
UniProt P08684, whole entry: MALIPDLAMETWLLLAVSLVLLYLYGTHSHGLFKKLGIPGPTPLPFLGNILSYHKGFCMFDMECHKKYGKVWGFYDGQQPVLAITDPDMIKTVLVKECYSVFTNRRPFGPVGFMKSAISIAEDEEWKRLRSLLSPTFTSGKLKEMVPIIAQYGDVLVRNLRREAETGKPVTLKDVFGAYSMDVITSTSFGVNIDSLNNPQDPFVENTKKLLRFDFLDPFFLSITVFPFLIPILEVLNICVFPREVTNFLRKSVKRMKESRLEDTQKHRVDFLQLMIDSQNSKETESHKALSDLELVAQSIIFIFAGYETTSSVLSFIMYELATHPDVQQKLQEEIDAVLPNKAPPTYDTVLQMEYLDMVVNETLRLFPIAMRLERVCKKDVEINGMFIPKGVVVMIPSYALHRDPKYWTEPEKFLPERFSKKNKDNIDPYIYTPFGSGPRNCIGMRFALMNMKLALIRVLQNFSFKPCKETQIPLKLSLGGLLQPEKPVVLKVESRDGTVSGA
UniProt P33261, whole entry: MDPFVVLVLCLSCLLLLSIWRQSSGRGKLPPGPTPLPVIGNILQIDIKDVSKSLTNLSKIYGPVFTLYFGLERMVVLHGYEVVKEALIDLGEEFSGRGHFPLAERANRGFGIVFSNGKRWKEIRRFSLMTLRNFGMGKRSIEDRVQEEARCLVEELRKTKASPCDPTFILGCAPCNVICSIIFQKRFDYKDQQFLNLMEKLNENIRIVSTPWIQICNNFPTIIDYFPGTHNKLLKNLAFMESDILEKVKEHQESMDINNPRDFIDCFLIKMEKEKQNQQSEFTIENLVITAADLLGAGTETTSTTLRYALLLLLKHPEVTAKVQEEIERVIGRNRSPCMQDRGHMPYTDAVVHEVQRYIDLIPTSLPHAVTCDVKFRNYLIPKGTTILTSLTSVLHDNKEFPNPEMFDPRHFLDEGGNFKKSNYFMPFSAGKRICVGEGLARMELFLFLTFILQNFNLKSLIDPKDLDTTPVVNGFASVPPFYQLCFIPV
UniProt P10635, whole entry: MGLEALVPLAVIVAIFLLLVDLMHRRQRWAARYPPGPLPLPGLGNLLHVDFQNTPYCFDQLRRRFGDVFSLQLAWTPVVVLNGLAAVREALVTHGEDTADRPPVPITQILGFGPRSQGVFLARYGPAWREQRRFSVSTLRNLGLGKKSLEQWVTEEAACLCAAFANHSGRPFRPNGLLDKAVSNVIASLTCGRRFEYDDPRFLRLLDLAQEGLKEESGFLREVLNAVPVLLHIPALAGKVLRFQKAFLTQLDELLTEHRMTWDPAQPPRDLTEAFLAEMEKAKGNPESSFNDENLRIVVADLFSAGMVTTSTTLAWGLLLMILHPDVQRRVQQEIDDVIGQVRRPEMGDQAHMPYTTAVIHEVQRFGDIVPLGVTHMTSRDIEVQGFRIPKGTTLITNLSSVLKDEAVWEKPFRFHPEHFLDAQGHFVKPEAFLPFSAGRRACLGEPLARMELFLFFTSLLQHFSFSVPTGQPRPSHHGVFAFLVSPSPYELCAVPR
UniProt P11712, whole entry: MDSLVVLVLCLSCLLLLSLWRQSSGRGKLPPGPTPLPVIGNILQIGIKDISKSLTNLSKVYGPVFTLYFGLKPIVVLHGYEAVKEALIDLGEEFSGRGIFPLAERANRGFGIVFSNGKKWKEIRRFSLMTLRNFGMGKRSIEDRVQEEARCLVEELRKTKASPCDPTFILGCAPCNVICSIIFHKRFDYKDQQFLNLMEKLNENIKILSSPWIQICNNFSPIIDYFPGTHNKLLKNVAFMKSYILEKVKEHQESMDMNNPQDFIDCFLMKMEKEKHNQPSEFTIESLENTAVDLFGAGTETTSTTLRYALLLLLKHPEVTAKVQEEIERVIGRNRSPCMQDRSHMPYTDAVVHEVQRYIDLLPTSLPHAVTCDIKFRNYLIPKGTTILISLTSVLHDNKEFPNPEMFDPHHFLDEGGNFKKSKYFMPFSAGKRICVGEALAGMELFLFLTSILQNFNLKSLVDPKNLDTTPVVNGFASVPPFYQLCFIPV

Tests used:
[1] = biological target: SARS-CoV-2 M^PRO (Severe acute respiratory syndrome coronavirus 2, UniProt P0DTD1); conditions: In vitro potency data, 30 min pre-incubation, 25 nM M^pro, 25 µM substrate
[2] = Plasma protein binding, human
[3] = Microsomal stability, human liver microsomes; assay type: in vitro ADME
[4] = Plasma protein binding, mice
[5] = Plasma stability, human; assay type: in vitro ADME; conditions: 37° C., 2 µM
[6] = biological target: CYP 1A2 (Homo sapiens, UniProt P05177); assay: CYP inhibition assay, 1A2; conditions: read-out: CYP P450 isoform, µM 1A2; human liver microsomes, phenacetin substrate
[7] = PAMPA permeability assay; assay type: in vitro ADME; conditions: pH 7.40, 4 h
[8] = tested on: Caco-2 cells; assay: Caco-2 permeability; assay type: in vitro ADME
[9] = Kinetic solubility in water
[10] = biological target: CYP 3A4 (Homo sapiens, UniProt P08684); assay: CYP inhibition assay, 3A4; conditions: read-out: CYP P450 isoform, µM 3A4; human liver microsomes, midazolam substrate
[11] = Plasma stability, mice; assay type: in vitro ADME; conditions: 37° C., 2 µM
[12] = biological target: CYP 2C19 (Homo sapiens, UniProt P33261); assay: CYP inhibition assay, 2C19; conditions: read-out: CYP P450 isoform, µM 2C19; human liver microsomes, S-mephenytoin substrate
[13] = biological target: CYP 2D6 (Homo sapiens, UniProt P10635); assay: CYP inhibition assay, 2D6; conditions: read-out: CYP P450 isoform, µM 2D6; human liver microsomes, dextromethorphan substrate
[14] = biological target: CYP 2C9 (Homo sapiens, UniProt P11712); conditions: read-out: CYP P450 isoform, µM 2C9; human liver microsomes, diclofenac substrate

With `O=C(N[C@H]1CCC(F)(F)C1)[C@@H](c1cncnc1)N(C(=O)CCl)c1ccc(-c2cncs2)cc1` as the molecule, how does the pIC50 [1] read?
The pIC50 was 7.22.

With `O=C(N[C@H]1CCC(F)(F)C1)[C@H](c1cncnc1)N(C(=O)CCl)c1ccc(-c2cnco2)cc1` as the molecule, how does the pIC50 [1] read?
The pIC50 was 6.51.

With `O=C(NC1CCC(F)(F)CC1)C(c1cncnc1)N(C(=O)CCl)c1ccc(-c2cnc[nH]2)cc1` (centres unmarked) as the molecule, how does the pIC50 [1] read?
The pIC50 was 5.93.

What does the source list for `O=C(N[C@H]1CCOC1)C(c1cnccn1)N(C(=O)CCl)c1ccc(-c2ccno2)cc1` (single isomer, unassigned)?
pIC50 ([1]; listed as INSCoV-601Q(IA)): 7.41; pIC50 ([1]; listed as INSCoV-601Q(lB)): 7.15; PPB, human, % Recovery [2]: NA/NA/3.5%; MMS, HLM, CLint(mic), (µL/min/mg) [3]: 178,6 µL/min/mg; PPB, mice, % Recovery [4]: NA/NA/3.1%; Plasma stability, human, T½ [5]: 11.6 min; IC50 [6]: 38.6 µM; PAMPA, Mean Pe [7]: 0.0708 ×10⁻⁶ cm/s; efflux ratio [8]: 56.3; Caco-2, Mean Papp, (10-^6 cm/s), A to B ([8]; A to B, 2.00 µM, pH 7.40): 0.0610 10-^6 cm/s; Kinetic solubility in water [9]: 114 µM; IC50 [10]: 1.57 µM; Plasma stability, mice, T½ [11]: 6.9 min; IC50 [12]: 17.3 µM; IC50 [13]: 16.2 µM; IC50 [14]: 20.7 µM

With `O=C(NC1CCC(F)(F)CC1)C(c1cncnc1)N(C(=O)[C@H]1CO1)c1ccc(-c2cnco2)cc1` (some centres unmarked) [INSCoV-600R(1)] as the molecule, how does the pIC50 [1] read?
Its pIC50 is 4.78.
